Measurements from patent US20250360138A1 (priority 2022, published 2025).

Test system: HEK293T
Test: Mammalian cytotoxicity counter screen, luminescent ATP viability assay
Type: cell-based, human
Conditions: toxicity in mammalian cell cultures versus G. lamblia GS-clone 7 trophozoites

## CCCN(CCC)c1ccc(N=Nc2ccccc2C(=O)O)cc1 [propyl red]
  Selectivity index (SI), CC50/EC50: > 4
